Anti-infective test results gathered from many reports (values: NIAID ChemDB through PubChem).

Shared fields: target-level tests; agent: Hepatitis C virus

Fold resistance has wild type as its base. a–b is a range or a potency band. Conditions beyond the fields shown may differ between rows. Percent inhibition refers to the dose given; in toxicity tests it is the harm to the cells. ICn: concentration for n% inhibition.

CC(=O)N[C@@H](CC(=O)O)C(=O)N[C@@H](CCC(=O)O)C(=O)N[C@H](C(=O)N[C@@H](CC(=O)O)C(=O)N[C@@H](CC1CCCCC1)C(=O)N[C@@H](CS)C(=O)O)C(c1ccccc1)c1ccccc1 ; target: NS3 serine protease ; endpoint: IC50 ; result: 0.05 µM
COc1cc(OC)c2c(=O)c(OC)c(-c3ccc(OC)c(OC)c3)oc2c1 ; target: Replicase complex ; endpoint: inhibition ; dose: 20 µM ; method: SYBR Green ; strain: J4 ; result: 4%
O=C(O)c1nc(-c2sccc2NS(=O)(=O)c2cccc(C(F)(F)F)c2)[nH]c(=O)c1O ; target: HCV polymerase ; endpoint: IC50 ; result: <25 µM
O=C(CCCCC(=O)Nc1ccc(-c2nc3ccccc3[nH]2)cc1)Nc1ccc(-c2nc3ccccc3[nH]2)cc1 ; target: HCV NS3 helicase ; endpoint: IC50 ; result: 0.7 µM
CC[C@H](NC(=O)[C@@H]1C[C@@H](OCc2ccc3ccccc3c2)CN1C(=O)[C@@H](NC(=O)[C@@H](NC(=O)c1cnccn1)C(C)C)C(C)C)P(=O)(Oc1ccccc1)Oc1ccccc1 ; target: NS3 protease ; endpoint: Ki ; result: 1–100 µM
CNN1C(=O)/C(=C\c2ccc(Cl)c(Cl)c2)SC1=S ; target: NS5B polymerase ; endpoint: IC50 ; result: ≤30 µM
CC[C@@H](C=O)NC(=O)[C@@H]1C[C@@H](OCc2ccccc2)CN1C(=O)[C@@H](NC(=O)c1cn(Cc2ccccc2)c2ccccc12)C(C)C ; target: NS3 protease ; endpoint: Ki ; result: 1–100 µM
COc1cccc(CNC(=O)Nc2cccc(-c3nc(C(=O)O)c(O)c(=O)[nH]3)c2)c1 ; target: HCV polymerase ; endpoint: IC50 ; result: <100 µM
C[C@@]1(O)[C@H](O)[C@@H](COP(=O)(O)OP(=O)(O)OP(=O)(O)O)O[C@H]1c1ccc2c(N)ncnn12 ; target: Nonstructural protein 5B ; endpoint: IC50 ; method: nucleotide incorporation ; strain: GT2a ; result: 0.39 µM
O=C(O)[C@@H](Cc1ccccc1)N(Cc1ccc(-c2cc3ccccc3o2)cc1)C(=O)c1ccc(Cl)cc1Cl ; target: Nonstructural protein 3 NTPase/helicase ; endpoint: IC50 ; method: HPLC ; result: 5–20 µM
NC(=O)c1ncn([C@@H]2O[C@H](COC(=O)c3ccc(S(=O)(=O)F)cc3)[C@@H](O)[C@H]2O)n1 ; target: Nonstructural protein 3 NTPase/helicase ; endpoint: inhibition ; dose: 300 µM ; result: 64%
NC(=O)[C@H](CC(=O)O)NC(=O)[C@H](CC1CCCCC1)NC(=O)[C@@H]1CCCN1C(=O)[C@H](CS)NC(=O)[C@H](CC1CCCCC1)NC(=O)[C@@H](N)CCC(=O)O ; target: NS3/NS4A protease ; endpoint: IC50 ; result: >100 µM
CC[C@H](NC(=O)[C@@H]1C[C@@H](OCc2ccccc2)CN1C(=O)[C@@H](NC(=O)[C@@H](NC(=O)c1cnccn1)C(C)C)C(C)C)C(=O)C(=O)NCCc1ccccc1 ; target: NS3 protease ; endpoint: Ki ; result: 1–100 µM
O=C(O)[C@H](Cc1ccccc1)N(Cc1ccc(-c2cc3ccccc3o2)s1)C(=O)c1ccc(Cl)cc1Cl ; target: Nonstructural protein 3 NTPase/helicase ; endpoint: IC50 ; method: HPLC ; result: 5–20 µM
CC(OC(=O)OC1CCCCC1)OC(=O)c1nc(-c2sccc2NC(=O)NCc2ccccc2Cl)[nH]c(=O)c1O ; target: HCV polymerase ; endpoint: IC50 ; result: <50 µM
O=C1/C(=C\c2ccc3c(c2)Cc2ccccc2-3)SC(=S)N1NS(=O)(=O)c1ccccc1 ; target: NS5B polymerase ; endpoint: IC50 ; result: ≤30 µM
CC[C@H](C)[C@H](NC(=O)[C@H](CC(C)C)NC(=O)[C@@H](CC(C(=O)O)C(=O)O)NC(=O)[C@H](CC(=O)O)NC(C)=O)C(=O)N[C@@H](CC1CCCCC1)C(=O)N[C@@H](CS)C(=O)O ; target: NS3/NS4A protease ; endpoint: IC50 ; result: 0.0015 µM
O=C(O)c1nc(-c2cccc(CS(=O)(=O)c3cccs3)c2)[nH]c(=O)c1O ; target: HCV polymerase ; endpoint: IC50 ; result: <100 µM
C=C[C@@H]1C[C@]1(NC(=O)[C@@H]1C[C@@H](Oc2nccc3ccc(Br)cc23)CN1C(C)=O)C(=O)NS(=O)(=O)C1CC1 ; target: Nonstructural protein 3/4A ; endpoint: IC50 ; method: FRET ; strain: 1b C159S ; result: 1.58 µM
O=C(Nc1cccc(-c2nc(C(=O)O)c(O)c(=O)[nH]2)c1)Nc1cccc(Cl)c1Cl ; target: HCV polymerase ; endpoint: IC50 ; result: <100 µM
O=C(O)[C@H](Cc1ccccc1)N(Cc1ccc(-c2cccc(Cl)c2)o1)C(=O)c1ccccc1Cl ; target: RNA-dependent RNA polymerase ; endpoint: IC50 ; result: 5–20 µM
O=c1ccn([C@@H]2O[C@H](CO)[C@]3(CO)C[C@]23F)c(=O)[nH]1 ; target: Nonstructural protein 5B ; conditions: genotype 1b ; endpoint: IC50 ; method: nucleotide incorporation ; result: >100 µM
C[C@@]1(O)[C@H](O)[C@@H](COP(=O)(O)OP(=O)(O)OP(=O)(O)O)O[C@H]1c1cnc2c(N)ncnn12 ; target: Nonstructural protein 5B ; endpoint: IC50 ; method: nucleotide incorporation ; strain: GT-1b Con1 ; result: 0.55 µM
O=C(O)c1nc(-c2cnccn2)[nH]c(=O)c1O ; target: HCV polymerase ; endpoint: IC50 ; result: <100 µM
O=S(=O)(NN1C(=S)S/C(=C\c2ccc(Cl)c(Cl)c2)C1O)c1ccccc1 ; target: NS5B polymerase ; endpoint: IC50 ; result: ≤30 µM
COc1cc(C)c(S(=O)(=O)N(Cc2ccc(Br)cc2)C(Cc2ccccc2)C(=O)O)c(C)c1C ; target: RNA-dependent RNA polymerase ; endpoint: IC50 ; result: 5–20 µM
O=C(Nc1cccc(-c2nc(C(=O)O)c(O)c(=O)[nH]2)c1)c1ccc(Br)s1 ; target: HCV polymerase ; endpoint: IC50 ; result: <100 µM
CC[C@H](C)[C@H](NC(=O)[C@@H](CC(=O)O)NC(=O)[C@H](CC(=O)O)NC(C)=O)C(=O)N[C@H](C(=O)N1CCC[C@H]1C(=O)N[C@@H](CS)C(=O)O)C(C)C ; target: NS3 serine protease ; endpoint: IC50 ; result: 4 µM
Nc1ncnc2c1ncn2[C@@H]1O[C@H](COC(=O)c2ccc(S(=O)(=O)F)cc2)[C@@H](O)[C@H]1O ; target: Nonstructural protein 3 NTPase/helicase ; endpoint: inhibition ; dose: 300 µM ; result: 48%
O=c1c(O)c(-c2cc(O)c(O)c(O)c2)oc2cc(O)ccc12 ; target: Replicase complex ; endpoint: inhibition ; dose: 20 µM ; method: SYBR Green ; strain: J4 ; result: 55.9%
O=C1NC(=S)S/C1=C/c1ccc(Br)cc1 ; target: NS5B polymerase ; endpoint: IC50 ; result: ≤30 µM
O=c1cc(-c2ccc(O)cc2)oc2cc(O)cc(O)c12 ; target: Replicase complex ; endpoint: inhibition ; dose: 20 µM ; method: SYBR Green ; strain: J4 ; result: 62.5%
CCC[C@H](NC(=O)C1C[C@@H](OC(=O)N2CCc3ccccc3C2)CN1C(=O)[C@@H](NC(=O)[C@@H](NC(=O)c1cnccn1)C(C)C)C(C)C)C(=O)C(=O)N1CCC1 ; target: HCV NS3 protease ; endpoint: Ki ; result: <1 µM
O=C(O)c1nc(-c2sccc2NC(=O)C2CCNCC2)[nH]c(=O)c1O ; target: HCV polymerase ; endpoint: IC50 ; result: <25 µM
CCOc1ccc2ccccc2c1C(=O)N[C@H](C(=O)N1C[C@H](OCc2ccccc2)C[C@H]1C(=O)N[C@H](C=O)CC)C(C)C ; target: NS3 protease ; endpoint: Ki ; result: 1–100 µM
C[C@@]1(O)[C@H](O)[C@@H](COP(=O)(O)OP(=O)(O)OP(=O)(O)O)O[C@@]1(C#N)c1ccc2c(N)ncnn12 ; target: Nonstructural protein 5B ; changes: M289L ; endpoint: fold resistance ; method: radiometric ; strain: 2a JFH-1 ; result: 2.8
O=c1c(O)c(-c2ccc(O)c(O)c2)oc2cc(O)ccc12 ; target: Replicase complex ; endpoint: inhibition ; dose: 20 µM ; method: SYBR Green ; strain: J4 ; result: 65.8%
CN1C(=O)/C(=C\c2ccc(Cl)c(Cl)c2)SC1=S ; target: NS5B polymerase ; endpoint: IC50 ; result: >30 µM